## Potato spindle tuber viroid, loop 6: variant abundance in plants

Data from the supplement of Wu et al. 2024, doi:10.1371/journal.ppat.1012142.

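Three N. benthamiana plants were inoculated with the whole mutant pool. Samples came from the inoculated region at 5 days, the leaf margin at 10 and upper systemic leaves at 12.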

Region: loop 6 of PSTVd (intermediate strain), upper and lower strand joined, each 5' to 3', the first 5 letters being the upper strand, closing pairs included. Wild type: UGACCGCGAG. Varied positions (N): UNNNCGNNNG.

Numbers give reads per thousand; 0 = not seen among the reads, higher = more abundant. Each value is the mean of three plants. "Pool" is the share in the plasmid pool used as inoculum, on the same scale. The inoculated region was read from the minus strand, the other sites from the plus strand.

UUAGCGUUGG (pool 0.340) gave inoculated region 0.0598; leaf margin 0.0155; systemic leaves 0. For UACUCGAUCG (pool 0.183) the result was inoculated region 0.0420; leaf margin 0; systemic leaves 0. With UUUACGCAUG (pool 0.105) the assay gave inoculated region 0.101; leaf margin 0; systemic leaves 0. For UUCACGCGAU (pool 0.0131) the result was inoculated region 0.0246; leaf margin 0; systemic leaves 0. UAAGCGCGAG (pool 0.235) gave inoculated region 0.144; leaf margin 0.406; systemic leaves 0.0877. With UUAGCGGUGG (pool 0.392) the assay gave inoculated region 0.0781; leaf margin 0; systemic leaves 0. For UUUACGGCAG (pool 0.261) the result was inoculated region 0.659; leaf margin 0.0752; systemic leaves 0.

For UAGACGAACG (pool 0.288) the result was inoculated region 0.131; leaf margin 0.0184; systemic leaves 0. For UUCGCGGACG (pool 0.209) the result was inoculated region 0.0766; leaf margin 0; systemic leaves 0. For UUCGCGGCUG (pool 0.288) the result was inoculated region 0.113; leaf margin 0; systemic leaves 0. With UUACCGUCCG (pool 0.301) the assay gave inoculated region 0.167; leaf margin 0.00920; systemic leaves 0. UAGCCUGGAG (pool 0.0131) gave inoculated region 0; leaf margin 0; systemic leaves 0. For UUGACGCUGG (pool 0.157) the result was inoculated region 0.0897; leaf margin 0; systemic leaves 0. For UGUACGUGCG (pool 0.222) the result was inoculated region 0.0781; leaf margin 0; systemic leaves 0.00673.

UGAGCGACUG (pool 0.353) gave inoculated region 0.136; leaf margin 0.00773; systemic leaves 0. UCUACGCCGG (pool 0.183) gave inoculated region 0.142; leaf margin 0.0169; systemic leaves 0. UGACCGAUCG (pool 0.327) read inoculated region 0.185; leaf margin 0.393; systemic leaves 0.0872. With UCGUCGGCUG (pool 0.261) the assay gave inoculated region 0.107; leaf margin 0.00920; systemic leaves 0. With UACACGAGGG (pool 0.131) the assay gave inoculated region 0.0715; leaf margin 0; systemic leaves 0. With UUCUCGUGAG (pool 0.301) the assay gave inoculated region 0.113; leaf margin 0; systemic leaves 0.00684. For UGCACCCGAG (pool 0.0131) the result was inoculated region 0; leaf margin 0; systemic leaves 0.

For UGGACGAGUG (pool 0.118) the result was inoculated region 0.0951; leaf margin 0; systemic leaves 0. For UUGUCGUUUG (pool 0.431) the result was inoculated region 0.0773; leaf margin 0.00773; systemic leaves 0. For UCACCGUUUG (pool 0.222) the result was inoculated region 0.148; leaf margin 0; systemic leaves 0.

The first 2 entries again:

| sequence | pool | inoculated region | leaf margin | systemic leaves |
|---|---|---|---|---|
| UUAGCGUUGG | 0.340 | 0.0598 | 0.0155 | 0 |
| UACUCGAUCG | 0.183 | 0.0420 | 0 | 0 |

With 36,220-57,551 reads a sample, very low values are single reads. For reference, wild type rose from 20.7 per thousand in the pool to 195, 198, 203 (inoculated region), 629, 591, 734 (leaf margin) and 942, 870, 868 (systemic leaves). The authors trace changes outside the varied positions to PCR and sequencing errors or to mutation in the plant; presence does not show that a variant is infectious alone.